Test results as given in PMC12886537.
A negative result means that nothing was seen under these conditions. At least one verdict rests on a figure or table, not on a statement of the authors. For part of these data: Protein sequences can lack the tags named with them.

Chains of the proteins cited; added tags and fusions are not shown. Residues count along the entry.
UniProt P02771, 19-609: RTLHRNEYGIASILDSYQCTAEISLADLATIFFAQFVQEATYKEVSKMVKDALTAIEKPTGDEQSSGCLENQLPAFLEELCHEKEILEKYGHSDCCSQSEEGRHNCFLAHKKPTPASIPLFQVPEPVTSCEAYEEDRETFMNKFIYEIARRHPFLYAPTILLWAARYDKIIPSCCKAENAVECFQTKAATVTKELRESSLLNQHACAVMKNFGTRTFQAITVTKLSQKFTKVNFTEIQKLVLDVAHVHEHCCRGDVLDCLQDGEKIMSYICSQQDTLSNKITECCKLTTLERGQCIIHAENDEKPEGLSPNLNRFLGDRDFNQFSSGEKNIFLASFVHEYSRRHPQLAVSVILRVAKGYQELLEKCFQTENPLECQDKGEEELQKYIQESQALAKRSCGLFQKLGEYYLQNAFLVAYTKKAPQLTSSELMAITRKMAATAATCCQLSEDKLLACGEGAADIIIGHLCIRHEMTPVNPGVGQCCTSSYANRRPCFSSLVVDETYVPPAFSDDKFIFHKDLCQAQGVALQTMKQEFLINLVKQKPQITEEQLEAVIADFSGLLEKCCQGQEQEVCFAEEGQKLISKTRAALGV
UniProt P02769, 25-607: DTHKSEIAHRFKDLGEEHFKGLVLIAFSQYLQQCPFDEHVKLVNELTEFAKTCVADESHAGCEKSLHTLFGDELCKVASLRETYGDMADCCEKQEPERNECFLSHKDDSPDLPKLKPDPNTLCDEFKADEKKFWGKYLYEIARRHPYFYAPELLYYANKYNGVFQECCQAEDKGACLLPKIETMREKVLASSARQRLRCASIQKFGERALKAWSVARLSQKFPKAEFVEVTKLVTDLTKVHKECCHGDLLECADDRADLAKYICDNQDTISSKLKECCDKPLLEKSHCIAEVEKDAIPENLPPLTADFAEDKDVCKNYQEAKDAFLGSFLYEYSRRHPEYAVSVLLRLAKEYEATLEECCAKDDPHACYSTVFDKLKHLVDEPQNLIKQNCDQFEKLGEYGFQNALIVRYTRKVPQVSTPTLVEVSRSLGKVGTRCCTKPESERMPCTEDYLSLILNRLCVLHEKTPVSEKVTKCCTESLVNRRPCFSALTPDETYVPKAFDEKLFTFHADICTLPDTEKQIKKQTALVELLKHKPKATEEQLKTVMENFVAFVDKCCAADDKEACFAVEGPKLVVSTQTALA

Key:
Experiment in all cases: ELONA
Conditions in all cases: 400 nM NP14; commercial protein; label: biotin (ELONA), 5'-FAM (flow cytometry, confocal); folded or branched DNA
[1] = target: alpha-fetoprotein (AFP) (UniProt P02771)
[2] = target: T1, interleukin-4 (IL-4) (UniProt P05112)
T1 sequence (looked up, limits assumed): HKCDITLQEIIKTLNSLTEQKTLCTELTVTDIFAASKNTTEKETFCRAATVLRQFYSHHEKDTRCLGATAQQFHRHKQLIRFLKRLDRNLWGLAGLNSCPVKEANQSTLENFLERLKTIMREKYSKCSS

[3] = target: bovine serum albumin (BSA) (bovine) (UniProt P02769)

Measured: binding result

TTTTTAACACGACTCTCCTGTGGCCAGCGAACTGATTGCCTGTCGTGCCATG [NP14]
no binding: all assays above
